One data set has as its system L. major promastigotes. Briefly: Leishmanicidal activity against L. major promastigotes (MTT assay). Format: cell-based, Leishmania major. Particulars: ratio CC50 in macrophages / IC50 of L. major parasites. The procedure: (§1) Promastigotes. L. major (clone VI, MHOM/IL/80) and L. infantum (clone, BCN-150) parasites were cultured at 26 °C under continuous shaking in M199 1× medium (Sigma, St. Louis, MO, USA) supplemented with heat-inactivated fetal bovine serum (FBS), 25 mM HEPES (pH 7), 0.1 mM adenine, 0.0005% (w/v) haemin, […], 0.0005% (w/v) biotin, 100 IU/mL penicillin and […]. For each experiment, the culture medium was changed everyday in order to achieve parasite in exponential growth phase.
(§2) In order to determine the leishmanicidal activity of the compounds obtained in this study, promastigotes of L. major and L. infantum strains were seeded in 96-well plates (3 ×·10^6 parasite/mL) in exponential growth phase at increasing concentrations (1–500 μM) of the compounds and maintained at 26 °C. After 48 h of incubation, the IC50 was determined by MTT assay. The absorbance was measured in a MultiskanEX photometric plate reader for microplates at 540 nm. Data were obtained from three independent experiments performed in triplicate.

The subject of data set [1] is L. infantum promastigotes. The data set is described as follows: Leishmanicidal activity against L. infantum promastigotes (MTT assay). The data set is classed as cell-based, Leishmania infantum. The following applies: ratio CC50 in macrophages / IC50 of L. infantum parasites. How it is done:
as §1, §2

`CCCCCCCCCCCCCCCCOP(=O)([O-])OCC[N+](C)(C)C` [MIL, miltefosine, reference compound]: the “SI L. major” value in the data set with L. major promastigotes amounted to 0.2. In addition, the “SI L. infantum” value in data set [1] was determined as 0.4.
For the compound `NC[C@@H]1O[C@H](O[C@H]2[C@@H](O)[C@H](O[C@@H]3[C@@H](O)[C@H](N)C[C@H](N)[C@H]3O[C@H]3O[C@H](CO)[C@@H](O)[C@H](O)[C@H]3N)O[C@@H]2CO)[C@H](N)[C@@H](O)[C@@H]1O` [PMN, paromomycin, reference compound], the “SI L. major” value in the data set on L. major promastigotes is listed as 0.6. Further, the “SI L. infantum” value in data set [1] was found to be 2.2.
